Measured values from several laboratories, pooled; numbers as filed in NIAID ChemDB.

Common to all: host cell toxicity; endpoint: CC50

CCn: concentration that lowers growth or viability of the cells by n%.

SMILES,cell line,method,result
CCOC(=O)CCCCCOc1cccc(CN(C(=O)c2ccc(Br)cc2)C(C)C)c1,RAJI,,>20 µM
Nc1ccn([C@H]2O[C@@H](CO)[C@H](O)[C@@H]2O)c(=O)n1,FLOW 2002,,100 µg/mL
CC1C(=O)N(C)c2ccc(C(=O)CN3CCN(c4ccc([N+](=O)[O-])cc4)CC3)cc21,RAW 264.7,MTT,70.18 µg/mL
Nc1nc2c(ncn2COC(CO)CO)c(=O)[nH]1,CEM-CD+4,,35–72 µM
Cc1c(Cl)cccc1-c1nc(=S)[nH][nH]1,Panc-1,MTT,>100 µg/mL
COC(=O)[C@@H](NC(=O)[C@@H](NC(=O)CNC[C@H](O)[C@H](Cc1ccccc1)NC(=O)[C@H](C)NC(=O)[C@H](C)NC(=O)OCc1ccccc1)C(C)C)C(C)C,MOLT-4,,>100 µM
[N-]=C=Nc1nncs1,PRMK,,1 µg/mL
C#CCSc1n[nH]c(-c2ccc([N+](=O)[O-])c(C(F)(F)F)c2)n1,THP-1,MTT,>100 µg/mL
COc1ccnc2[nH]cc(C(=O)C(=O)N3CCN(C(=O)c4ccccc4)C[C@H]3C)c12,SK-N-MC,,>225 µM
CCOC(=O)/C=C/[C@H](Cc1ccccc1)NC(=O)[C@H](Cc1ccccc1)NC(=O)OCc1ccccc1,HeLa cells,cell count,121.4 µM
CCCCCCOc1nc(N)nc2c1ncn2/C=C1/C[C@@H]1CO,Akata,ATP,>20 µM
Nc1ncnc2c1c(Br)cn2COCCO,GPE,,700 µg/mL
CCN1C(=O)Cc2cc(C(=O)CN3CCN(c4ccccn4)CC3)ccc21,RAW 264.7,MTT,94.26 µg/mL
N=C(N)c1ccnc(-c2cccc(-c3cc(C(=N)N)ccn3)c2)c1,L6 rat myoblasts,,>150 µM
CN(C)C(=O)/C=C/[C@H](Cc1ccccc1)NC(=O)[C@H](Cc1ccccc1)NC(=O)OCc1ccccc1,HeLa cells,cell count,210 µM
Nc1nc(SC2CCCC2)c2ncn(/C=C3/C[C@@H]3CO)c2n1,Akata,ATP,>20 µM
Nc1nc2c(nc(N)n2[C@@H]2O[C@H](CO)[C@@H](O)[C@H]2F)c(=O)[nH]1,MDCK,MTT,>500 µM
Nc1ccn([C@@H]2C[C@@H](O)[C@H](CO)O2)c(=O)n1,FLOW 2002,,>100 µg/mL
COC(=O)[C@@H](NC(=O)[C@@H](NC(=O)CNC[C@H](O)[C@H](Cc1ccccc1)NC(=O)[C@H](C)NC(=O)OCc1ccccc1)C(C)C)C(C)C,MOLT-4,,>100 µM
CCCOc1nc(N)nc2c1ncn2/C=C1/C[C@@H]1CO,Akata,ATP,>20 µM
Nc1ncnc2c1ncn2[C@@H]1O[C@H](CO)[C@@H](O)[C@H]1F,CEF,MTT,>100 µM
CC(C)Nc1nc2cc(Cl)c(Cl)cc2n1[C@H]1O[C@@H](CO)[C@H](O)[C@@H]1O,CEM-CD+4,,35–72 µM
Nc1nc2c(=O)[nH]c(Cl)nc2n1[C@@H]1O[C@H](CO)[C@@H](O)[C@H]1F,CEF,MTT,26 µM
CCOC(=O)CCCCCOc1cccc(CN(C(=O)c2ccc(-c3cc(OC)ccc3F)cc2)C(C)C)c1,RAJI,,>20 µM
C=CCn1c(=O)c(/C(=N\Nc2ccccc2)C(O)C(O)CO)nc2ccccc21,HepG2 2.2.15,MTT,>100 µM
O=C(CCCCCCCCc1ccccc1)c1c(O)cccc1O,NCI-H187,resazurin,18.05 µg/mL
CCCNCc1ccc(OCC(=O)OCC)cc1,HEK 293,,>20 µM
Nc1nc2c(=O)[nH]cnc2n1[C@@H]1O[C@H](CO)[C@@H](O)[C@H]1F,MDCK,MTT,>500 µM
C=CCSS/C=C/CS(=O)CC=C,MOLT-4,MTT,1.88 µM
Br.CN1C=CN(c2cccc(N3C=CN(C)C3)n2)C1,4T1,sulforhodamine,>30 µM
FC(F)(F)c1cccc(-c2nc(=S)[nH][nH]2)c1,Panc-1,MTT,>100 µg/mL
CC1C(=O)N(C)c2ccc(C(=O)CN3CCN(c4noc5cc(Cl)ccc45)CC3)cc21,RAW 264.7,MTT,53.84 µg/mL
Nc1ncnc2c1ncn2[C@H]1[C@H](O)[C@H](O)[C@@H](CO)C12CC2,Huh7 ET,,>100 µM
CCN1C(=O)Cc2cc(C(=O)CN3CCN(c4noc5ccccc45)CC3)ccc21,RAW 264.7,MTT,65.07 µg/mL
Nc1ccn([C@@H]2O[C@H](CO)[C@@H](O)[C@H]2F)c(=O)n1,CEF,MTT,>100 µM
NNC(=O)c1ccncc1,THP-1,MTT,>100 µg/mL
Nc1ccn([C@H]2O[C@@H](CO)[C@@H](O)[C@@H]2O)c(=O)n1,FLOW 2002,,>100 µg/mL
O=c1[nH]cnc2c1ncn2[C@@H]1O[C@H](CO)[C@@H](O)[C@H]1F,MDCK,MTT,>500 µM
C#CCSc1n[nH]c(-c2ccc(C(F)(F)F)cc2)n1,Panc-1,MTT,>100 µg/mL
Nc1ccn([C@H]2O[C@@H](CO)[C@H](O)[C@H]2O)c(=O)n1,FLOW 2002,,100 µg/mL
CCN1C(=O)C(C)c2cc(C(=O)CN3CCN(c4ccc([N+](=O)[O-])cc4)CC3)ccc21,RAW 264.7,MTT,81.38 µg/mL
CCCSc1nc(N)nc2c1ncn2/C=C1/C[C@@H]1CO,Akata,ATP,>20 µM
Nc1ccn([C@@H]2CC[C@H](CO)O2)c(=O)n1,FLOW 2002,,100 µg/mL
CSc1nc(N)nc2c1ncn2/C=C1/C[C@@H]1CO,Akata,ATP,>20 µM
O=[N+]([O-])c1ccc(-c2nc(=S)[nH][nH]2)cc1C(F)(F)F,Panc-1,MTT,>100 µg/mL
CCN1C(=O)C(C)c2cc(C(=O)CN3CCN(c4noc5cc(Cl)ccc45)CC3)ccc21,RAW 264.7,MTT,56.05 µg/mL
O=[N+]([O-])c1ccc(-c2nc(=S)[nH][nH]2)cc1,Panc-1,MTT,>100 µg/mL
CC(C)N(Cc1cccc(OCCCCCC(=O)OC(=O)O)c1)C(=O)c1ccc(-c2cccc(N(C)C)c2)cc1,BJ,,>20 µM
C=CCn1c(=O)c(-c2cc(COC(C)=O)n(-c3ccccc3)n2)nc2ccccc21,HepG2 2.2.15,MTT,>100 µM
O=C(CCCCCCCCc1ccccc1)c1c(O)cc(O)cc1O,NCI-H187,resazurin,>20 µg/mL
Nc1nc2c(ncn2[C@@H]2O[C@H](CO)[C@@H](O)[C@H]2F)c(=O)[nH]1,CEF,MTT,17 µM
CCCCOc1nc(N)nc2c1ncn2/C=C1/C[C@@H]1CO,Akata,ATP,>20 µM
CCN(CC)CCCC(C)Nc1ccnc2cc(Cl)ccc12,HeLa cells,cell count,121.9 µM

a–b is a range or a potency band. Blank or dashed fields: not listed here. Rows are shuffled and stem from different studies.